From PubChem BioAssay AID588335 (The Scripps Research Institute Molecular Screening Center, 2011)
The entries are a selection whose mix differs from that of the whole data set. Active and inactive are the calls of the source. Cut-off read from the data, not from the text of the source: active = inhibition above about 30%; inactive = the rest.

assay: GDH-TPI coupling enzyme inhibitors, primary screen, artefact control for M. tuberculosis FBA inhibitor project, biochemical, absorbance, full deck (AID 588335); conditions: GDH-TPI coupled enzyme counterscreen, NADH absorbance; at 4.8 µM; stronger effect = higher value;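 note: 0% = DMSO wells and 100% = wells lacking the enzyme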

Row | SMILES | inhibition
1 | CP(=O)(Nc1ccc(SC(F)(F)F)cc1)Oc1ccccc1 (configuration not stated) | inactive: -0.74%
2 | CCCOc1ccc(NP(C)(=O)Oc2ccc(Cl)cc2)cc1 (configuration not stated) | inactive: -0.32%
3 | CN1CCCCC1COC(=O)C1(O)c2ccccc2CCc2ccccc21 (configuration not stated) | inactive: 11.1%
4 | COc1ccccc1OP(C)(=O)Nc1c(C)cccc1C (configuration not stated) | inactive: -1.24%
5 | CCOC(=O)C(CC)C1=NC(C)(C)Cc2ccccc21.O=[N+]([O-])c1cc([N+](=O)[O-])c(O)c([N+](=O)[O-])c1 (configuration not stated) | active: 44.4%
6 | O=[N+]([O-])c1cc([N+](=O)[O-])c(Nc2nnnn2CCO)c([N+](=O)[O-])c1 | inactive: 6.67%
7 | CC1=C2N=C(C=C3N=C(C(C)=C4[N-][C@@](C)([C@@H]5N=C1[C@](C)(CCC(=O)NC[C@@H](C)OP(=O)([O-])O[C@H]1[C@@H](O)[C@@H](n6cnc7cc(C)c(C)cc76)O[C@@H]1CO)[C@H]5CC(N)=O)[C@@](C)(CC(N)=O)[C@@H]4CCC(N)=O)[C@@](C)(CC(N)=O)[C@@H]3CCC(N)=O)C(C)(C)[C@@H]2CCC(N)=O.[C-]#N.[Co+3] | inactive: 22.3%
8 | Cc1nc2ccc3ccccc3c2s1.O=[N+]([O-])c1cc([N+](=O)[O-])c(O)c([N+](=O)[O-])c1 | active: 30.7%
9 | O=[N+]([O-])c1cc([N+](=O)[O-])c(-c2cnn(-c3ccccc3)c2)c([N+](=O)[O-])c1 | inactive: -6.13%
10 | O=[N+]([O-])c1cc([N+](=O)[O-])c(-n2nnc3ccccc32)c([N+](=O)[O-])c1 | inactive: 6.83%
11 | CP(=O)(Nc1cccc(Br)c1)Oc1ccccc1 (configuration not stated) | inactive: -7.62%
12 | Cc1cc(C)cc(OP(C)(=O)Nc2ccccn2)c1 (configuration not stated) | inactive: 1.75%
13 | Cc1ccc(C)c(NP(C)(=O)Oc2ccccc2)c1 (configuration not stated) | inactive: 11.2%
14 | Cc1cc(C)cc(OP(C)(=O)Nc2ccc(C)cc2C)c1 (configuration not stated) | inactive: -5.65%
15 | CCOC(=O)c1ccc(NP(C)(=O)Oc2cc(C)cc(C)c2)cc1 (configuration not stated) | inactive: -3.58%
16 | COc1ccccc1OP(C)(=O)Nc1cccc(Br)c1 (configuration not stated) | inactive: -1.25%
17 | CC1=NCCc2c1[nH]c1ccccc21.O=[N+]([O-])c1cc([N+](=O)[O-])c(O)c([N+](=O)[O-])c1 | inactive: 17.3%
18 | O=C(O)c1cccc(Nc2c([N+](=O)[O-])cc([N+](=O)[O-])cc2[N+](=O)[O-])c1 | active: 35.1%
19 | COc1ccc(OP(C)(=O)Nc2cccc(F)c2)cc1 (configuration not stated) | inactive: -1.24%

Row | SMILES | inhibition
20 | COc1ccccc1OP(C)(=O)Nc1cc(Cl)ccc1C (configuration not stated) | inactive: 11%
21 | Cc1cc(C)cc(OP(C)(N)=O)c1 (configuration not stated) | inactive: 12.2%
22 | CCOC(=O)c1ccc(NP(C)(=O)Oc2ccccc2)cc1 (configuration not stated) | inactive: 8.82%
23 | Cc1ccc(NP(C)(=O)Oc2ccccc2)c(C)c1 (configuration not stated) | inactive: -3.8%
24 | COc1ccccc1OP(C)(=O)Nc1ccc(C)cc1 (configuration not stated) | inactive: 6.38%
25 | Cc1cccc(C)c1OP(C)(N)=O (configuration not stated) | inactive: 1.55%
26 | CC(C)(C)c1ccc(OP(C)(=O)Nc2ccc(SC(F)(F)F)cc2)cc1 (configuration not stated) | inactive: 7.89%
27 | O=[N+]([O-])c1ccc2c(c1)C=Nc1ccccc1O2 | inactive: 16.9%
28 | O=[N+]([O-])c1cc([N+](=O)[O-])c(Nc2cccnc2)c([N+](=O)[O-])c1 | inactive: 20.5%
29 | CCN(CC)CCCOC(=O)C(O)(c1ccccc1)c1ccccc1 | inactive: 2.84%
30 | CP(=O)(Nc1ccccn1)Oc1ccc(Cl)cc1 (configuration not stated) | inactive: -0.35%
31 | CCOP(C)(=S)SCC(=O)NC(C)C(=O)O (configuration not stated) | inactive: 8.4%
32 | O=[N+]([O-])c1cc([N+](=O)[O-])c(O)c([N+](=O)[O-])c1.c1ccc(Oc2ccncc2)cc1 | inactive: 12.3%
33 | CCOC(=O)c1ccc(NP(C)(=O)Oc2ccc(OC)cc2)cc1 (configuration not stated) | inactive: -7.04%
34 | Cc1cc(C)cc(OP(C)(=O)Nc2ccc(SC(F)(F)F)cc2)c1 (configuration not stated) | inactive: 2.56%
35 | CCc1ccc(OP(C)(=O)N2CCN(c3ccc([N+](=O)[O-])cc3)CC2)cc1 (configuration not stated) | inactive: 5.36%
36 | CP(=O)(NC(=O)Nc1ccccc1)Oc1ccccc1 (configuration not stated) | inactive: 6.56%
37 | CP(=O)(Oc1ccccc1)OC(c1ccccc1)C(F)(F)F (configuration not stated) | inactive: 0.63%
38 | CP(=O)(Nc1ccc(SC(F)(F)F)cc1)Oc1ccc(Cl)cc1 (configuration not stated) | inactive: -5.9%

Row | SMILES | inhibition
39 | Cc1cccc(C)c1OP(C)(=O)Nc1ccc(SC(F)(F)F)cc1 (configuration not stated) | inactive: 2.95%
40 | Cc1ccc(Nc2c([N+](=O)[O-])cc([N+](=O)[O-])cc2[N+](=O)[O-])cc1 | inactive: 23%
41 | COc1ccccc1OP(C)(=O)Nc1ccccc1 (configuration not stated) | inactive: -1.6%
42 | CP(=O)(Nc1ccccc1Br)Oc1ccccc1 (configuration not stated) | inactive: -1.81%
43 | CP(=S)(Nn1cnnc1)Oc1ccccc1 (configuration not stated) | inactive: 5.04%
44 | CP(=O)(OC12CC3CC(CC(C3)C1)C2)OC12CC3CC(CC(C3)C1)C2 | inactive: -11.8%
45 | CCOC(=O)c1ccc(NP(C)(=O)Oc2ccc(Cl)cc2)cc1 (configuration not stated) | inactive: -1.45%
46 | CN(C)C(=O)c1c([N+](=O)[O-])cc([N+](=O)[O-])cc1[N+](=O)[O-] | inactive: 4.79%
47 | CP(=O)(Nc1ccc(Cl)cc1)Oc1ccc(F)cc1 (configuration not stated) | inactive: 2.12%
48 | CC(C)(C)c1ccc(OP(C)(=O)O)cc1 | inactive: 1.24%
49 | COc1ccccc1OP(C)(=O)Nc1ccccc1Br (configuration not stated) | inactive: -1.89%
50 | CCc1ccc(OP(C)(=O)Nc2cccnc2)cc1 (configuration not stated) | inactive: 15.8%
51 | CP(=O)(Oc1ccccc1)N1CCOC1=O (configuration not stated) | inactive: 4.12%
52 | O=C(OCCCN1CCCC1)C(O)(c1ccccc1)C1CCCCC1 (configuration not stated) | inactive: -0.68%
53 | COc1ccccc1OP(C)(=O)Nc1c(C)n(C)n(-c2ccccc2)c1=O (configuration not stated) | inactive: 0%
54 | COc1ccc(OP(C)(=O)Nc2ccc(Br)cc2)cc1 (configuration not stated) | inactive: 10.5%
55 | CCN(CC)CC(O)COC(=O)C(O)(c1ccccc1)C1CCCCC1 (configuration not stated) | inactive: -0.47%
56 | CCc1ccc(OP(C)(=O)O)cc1 | inactive: 4.13%
57 | COc1ccccc1OP(C)(=O)Nc1ccc(C)cc1C (configuration not stated) | inactive: 11.6%
